Laboratory results as given in patent publication US20070071764A1.

Tests used:
[1] = target: human Kv1.3 channel (human) (UniProt P22001); assay: cell-based or functional assay
[2] = target: human Kv1.1 channel (human) (UniProt Q09470); assay: cell-based or functional assay

Substance: Fc-L10-OSK1[E16K,K20D] (Fc fusion)
- fold less potent than synthetic OSK1 (IC50 of Kv1.3 current block) [1]: 6 fold
- hKv1.3: IC50 (whole-cell patch clamp, HEK293) [1]: 0.248 nM
- selectivity ratio hKv1.1/hKv1.3 (IC50 on hKv1.1 over IC50 on hKv1.3) [1]: 403

Substance: Fc-L10-OSK1[K7S,E16K,K20D] (Fc fusion)
- fold less potent than synthetic OSK1 (IC50 of Kv1.3 current block) [1]: 21 fold
- hKv1.3: IC50 (whole-cell patch clamp, HEK293) [1]: 0.812 nM
- selectivity ratio hKv1.1/hKv1.3 (IC50 on hKv1.1 over IC50 on hKv1.3) [1]: 12
- hKv1.1: IC50 (electrophysiology, HEK293) [2]: 10000 pM

Substance: CHO-derived Fc-L10-ShK[1-35] R1Q (Fc fusion)
- Kv1.3 IC50 by IWQ (IonWorks planar patch clamp, CHO/Kv1.3 cells) [1]: 2.2 nM

Substance: Fc-L10-OSK1[K7S] (Fc fusion)
- hKv1.3: IC50 (whole-cell patch clamp, HEK293) [1]: 0.372 nM
- selectivity ratio hKv1.1/hKv1.3 (IC50 on hKv1.1 over IC50 on hKv1.3) [1]: 269
- hKv1.1: IC50 (electrophysiology, HEK293) [2]: 100000 pM
